The list shows a part of the results, in another mix than the full data. Activity calls are given as the source filed them. Rule as the data show it: active = inhibition above about 50%; inactive = the rest.
System: YopH tyrosine phosphatase [Yersinia enterocolitica]
Experiment: inhibition of Yersinia YopH phosphatase – biochemical, fluorescence Ex485/Em525, primary screen (AID 898)
Settings: active compounds read high, concentration not given here

Row | Structure (SMILES) | inhibition
1 | O=C(OC1CN2CCC1CC2)C1c2ccccc2C=Cc2ccccc21 (stereo not drawn) | inactive: -32.6%
2 | N/C(=N\O)c1c(N)no[n+]1[O-] | inactive: 6.98%
3 | c1ccc(CN2CCC(Nc3ccccc3)CC2)cc1 | inactive: 14.7%
4 | CCN1CCC(Nc2cccc(F)c2)CC1 | inactive: -5.36%
5 | CCOc1ncccc1C(=O)NCC1(N2CCOCC2)CCCCC1 | inactive: -36.9%
6 | CCC(CO)(C(=O)OC1CN2CCC1CC2)c1ccccc1 (stereo not drawn) | inactive: -48.5%
7 | O=C(OC1CN2CCC1CC2)C1c2ccccc2Oc2ccccc21 (stereo not drawn) | inactive: -27.7%
8 | O=C(NCC1(N2CCOCC2)CCCCC1)c1cc2ccccc2o1 | inactive: -13.8%
9 | COc1ccc(NC2CCN(CCc3ccccc3)CC2)c(OC)c1 | inactive: -33.4%
10 | N#CC1(Nc2ccccc2)CCN(CCc2ccccc2)CC1 | inactive: -22.9%
11 | CN1CCN(CCOC(=O)C(O)(c2ccccc2)c2ccccc2)CC1 | inactive: -20.4%
12 | O=C(NCC1(N2CCOCC2)CCCCC1)c1cc(=O)[nH]c2ccccc12 | inactive: 12.3%
13 | CN1CCC(Nc2cccc(F)c2)CC1 | inactive: -31.9%

Source: PubChem BioAssay AID898 (University of Pittsburgh Molecular Library Screening Center, 2007)
